Experimental data: article PMC11115230
For at least one entry, the source does not settle the construct or the ends of the probe. Where cells or extracts were used, other partners may take part. For part of these data: Protein sequences can lack the tags named with them.

How the values were obtained:
Experiment in all cases: DNA pull-down
[1] = target: PARP1, HeLa nuclear extract (human) (UniProt P09874); details: Pull-down: 20 mM HEPES pH 7.9, 100 mM KCl, 10% glycerol, 0.05% CHAPS, poly(dIdC), oligo B, acetylated BSA, room temperature; protein in an extract; label: 5' biotin-TEG on antisense strand
[2] = target: hnRNPK, HeLa nuclear extract (human) (UniProt P61978); details: Pull-down: 20 mM HEPES pH 7.9, 100 mM KCl, 10% glycerol, 0.05% CHAPS, poly(dIdC), oligo B, acetylated BSA, room temperature; protein in an extract; label: 5' biotin-TEG on antisense strand
[3] = target: T1, MIDEAS, PBMC nuclear extract (human) (UniProt Q6PJG2); details: Pull-down: 20 mM HEPES pH 7.9, 100 mM KCl, 10% glycerol, 0.05% CHAPS, poly(dIdC), oligo B, acetylated BSA, room temperature; protein in an extract; label: 5' biotin-TEG on antisense strand
T1 sequence (looked up, limits assumed): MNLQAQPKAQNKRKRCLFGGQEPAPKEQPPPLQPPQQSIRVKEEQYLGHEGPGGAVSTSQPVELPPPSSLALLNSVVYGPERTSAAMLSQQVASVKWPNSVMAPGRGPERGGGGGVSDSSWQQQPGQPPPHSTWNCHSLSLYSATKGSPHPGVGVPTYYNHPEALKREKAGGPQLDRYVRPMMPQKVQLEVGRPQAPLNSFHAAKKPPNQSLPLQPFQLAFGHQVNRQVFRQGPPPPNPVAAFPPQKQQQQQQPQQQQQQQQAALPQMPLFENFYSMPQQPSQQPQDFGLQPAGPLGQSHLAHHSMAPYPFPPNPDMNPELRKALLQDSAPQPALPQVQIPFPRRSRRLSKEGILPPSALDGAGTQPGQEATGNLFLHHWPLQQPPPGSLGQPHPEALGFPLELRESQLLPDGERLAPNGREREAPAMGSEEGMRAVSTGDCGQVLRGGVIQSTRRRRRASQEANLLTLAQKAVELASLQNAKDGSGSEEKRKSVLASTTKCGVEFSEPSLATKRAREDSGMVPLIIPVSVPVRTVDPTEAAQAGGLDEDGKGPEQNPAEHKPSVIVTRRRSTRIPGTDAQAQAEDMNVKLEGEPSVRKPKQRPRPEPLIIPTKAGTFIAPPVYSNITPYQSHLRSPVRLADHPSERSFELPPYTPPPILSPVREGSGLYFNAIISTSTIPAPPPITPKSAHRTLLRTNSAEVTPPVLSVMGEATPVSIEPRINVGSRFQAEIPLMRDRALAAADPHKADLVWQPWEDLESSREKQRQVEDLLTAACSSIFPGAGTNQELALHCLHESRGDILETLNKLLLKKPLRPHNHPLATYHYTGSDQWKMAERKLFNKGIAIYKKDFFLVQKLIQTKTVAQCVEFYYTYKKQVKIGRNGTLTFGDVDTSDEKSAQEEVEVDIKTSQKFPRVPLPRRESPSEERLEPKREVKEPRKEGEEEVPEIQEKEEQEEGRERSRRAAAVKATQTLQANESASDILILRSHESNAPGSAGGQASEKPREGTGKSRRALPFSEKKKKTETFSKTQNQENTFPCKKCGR

[4] = target: HDAC1, PBMC nuclear extract (human) (UniProt Q13547); details: Pull-down: 20 mM HEPES pH 7.9, 100 mM KCl, 10% glycerol, 0.05% CHAPS, poly(dIdC), oligo B, acetylated BSA, room temperature; protein in an extract; label: 5' biotin-TEG on antisense strand
[5] = target: T2, DNTTIP1, PBMC nuclear extract (human) (UniProt Q9H147); details: Pull-down: 20 mM HEPES pH 7.9, 100 mM KCl, 10% glycerol, 0.05% CHAPS, poly(dIdC), oligo B, acetylated BSA, room temperature; protein in an extract; label: 5' biotin-TEG on antisense strand
T2 sequence (looked up, limits assumed): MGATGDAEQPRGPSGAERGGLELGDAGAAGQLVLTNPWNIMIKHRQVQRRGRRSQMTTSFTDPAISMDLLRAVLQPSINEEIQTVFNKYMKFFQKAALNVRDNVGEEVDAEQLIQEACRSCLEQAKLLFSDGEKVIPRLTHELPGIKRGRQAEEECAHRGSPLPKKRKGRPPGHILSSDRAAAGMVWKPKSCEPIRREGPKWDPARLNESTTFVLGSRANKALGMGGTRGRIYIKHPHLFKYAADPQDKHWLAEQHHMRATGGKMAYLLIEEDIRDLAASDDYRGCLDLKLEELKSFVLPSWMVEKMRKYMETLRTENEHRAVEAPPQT

[6] = target: T3, MIDEAS, Jurkat nuclear extract (human) (UniProt Q6PJG2); details: Pull-down: 20 mM HEPES pH 7.9, 100 mM KCl, 10% glycerol, 0.05% CHAPS, poly(dIdC), oligo B, acetylated BSA, room temperature; protein in an extract; label: 5' biotin-TEG on antisense strand
T3 sequence (looked up, limits assumed): T1 sequence (looked up, limits assumed)

[7] = target: T4, MIDEAS (ELMSAN1/C14orf43), HeLa nuclear extract (human) (UniProt Q6PJG2); details: enhanced in nocodazole-arrested cells; Pull-down: 20 mM HEPES pH 7.9, 100 mM KCl, 10% glycerol, 0.05% CHAPS, poly(dIdC), oligo B, acetylated BSA, room temperature; protein in an extract; label: 5' biotin-TEG on antisense strand
T4 sequence (looked up, limits assumed): T1 sequence (looked up, limits assumed)

[8] = target: T5, NAT10, HeLa nuclear extract (human) (UniProt Q9H0A0); details: enhanced in nocodazole-arrested cells; Pull-down: 20 mM HEPES pH 7.9, 100 mM KCl, 10% glycerol, 0.05% CHAPS, poly(dIdC), oligo B, acetylated BSA, room temperature; protein in an extract; label: 5' biotin-TEG on antisense strand
T5 sequence (looked up, limits assumed): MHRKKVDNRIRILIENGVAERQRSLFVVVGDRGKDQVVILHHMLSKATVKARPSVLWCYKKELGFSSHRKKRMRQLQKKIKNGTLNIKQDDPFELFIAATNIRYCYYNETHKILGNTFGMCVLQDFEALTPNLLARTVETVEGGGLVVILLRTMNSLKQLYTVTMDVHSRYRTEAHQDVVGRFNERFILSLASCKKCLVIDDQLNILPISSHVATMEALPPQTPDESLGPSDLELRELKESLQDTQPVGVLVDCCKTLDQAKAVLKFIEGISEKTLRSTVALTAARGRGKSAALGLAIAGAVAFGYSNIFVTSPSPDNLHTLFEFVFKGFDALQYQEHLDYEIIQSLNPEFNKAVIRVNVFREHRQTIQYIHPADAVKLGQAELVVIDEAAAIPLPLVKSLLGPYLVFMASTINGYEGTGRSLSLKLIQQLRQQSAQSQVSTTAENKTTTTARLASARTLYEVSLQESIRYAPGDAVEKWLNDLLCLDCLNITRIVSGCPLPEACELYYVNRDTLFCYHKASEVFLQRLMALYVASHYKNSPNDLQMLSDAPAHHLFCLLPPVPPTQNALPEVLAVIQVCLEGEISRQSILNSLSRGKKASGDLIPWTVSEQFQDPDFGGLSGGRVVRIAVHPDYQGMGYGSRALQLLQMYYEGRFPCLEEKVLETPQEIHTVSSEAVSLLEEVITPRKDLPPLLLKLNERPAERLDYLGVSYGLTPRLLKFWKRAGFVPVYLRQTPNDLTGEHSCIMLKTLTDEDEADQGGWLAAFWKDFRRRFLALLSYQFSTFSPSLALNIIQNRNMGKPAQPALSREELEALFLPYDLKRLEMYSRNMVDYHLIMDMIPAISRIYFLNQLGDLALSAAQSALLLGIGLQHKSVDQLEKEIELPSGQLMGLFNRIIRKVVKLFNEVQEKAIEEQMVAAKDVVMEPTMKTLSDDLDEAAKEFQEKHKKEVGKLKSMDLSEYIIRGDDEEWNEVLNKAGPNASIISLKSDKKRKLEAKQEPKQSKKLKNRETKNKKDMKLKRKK

[9] = target: T6, DNTTIP1, Jurkat nuclear extract (human) (UniProt Q9H147); details: Pull-down: 20 mM HEPES pH 7.9, 100 mM KCl, 10% glycerol, 0.05% CHAPS, poly(dIdC), oligo B, acetylated BSA, room temperature; protein in an extract; label: 5' biotin-TEG on antisense strand
T6 sequence (looked up, limits assumed): T2 sequence (looked up, limits assumed)

[10] = target: T7, DNTTIP1, HeLa nuclear extract (human) (UniProt Q9H147); details: enhanced in nocodazole-arrested cells; Pull-down: 20 mM HEPES pH 7.9, 100 mM KCl, 10% glycerol, 0.05% CHAPS, poly(dIdC), oligo B, acetylated BSA, room temperature; protein in an extract; label: 5' biotin-TEG on antisense strand
T7 sequence (looked up, limits assumed): T2 sequence (looked up, limits assumed)

[11] = target: HDAC1, HeLa nuclear extract (human) (UniProt Q13547); details: enhanced in nocodazole-arrested cells; Pull-down: 20 mM HEPES pH 7.9, 100 mM KCl, 10% glycerol, 0.05% CHAPS, poly(dIdC), oligo B, acetylated BSA, room temperature; protein in an extract; label: 5' biotin-TEG on antisense strand
[12] = target: T8, AP4, HeLa nuclear extract (human) (UniProt Q01664); details: Pull-down: 20 mM HEPES pH 7.9, 100 mM KCl, 10% glycerol, 0.05% CHAPS, poly(dIdC), oligo B, acetylated BSA, room temperature; protein in an extract; label: 5' biotin-TEG on antisense strand
T8 sequence (looked up, limits assumed): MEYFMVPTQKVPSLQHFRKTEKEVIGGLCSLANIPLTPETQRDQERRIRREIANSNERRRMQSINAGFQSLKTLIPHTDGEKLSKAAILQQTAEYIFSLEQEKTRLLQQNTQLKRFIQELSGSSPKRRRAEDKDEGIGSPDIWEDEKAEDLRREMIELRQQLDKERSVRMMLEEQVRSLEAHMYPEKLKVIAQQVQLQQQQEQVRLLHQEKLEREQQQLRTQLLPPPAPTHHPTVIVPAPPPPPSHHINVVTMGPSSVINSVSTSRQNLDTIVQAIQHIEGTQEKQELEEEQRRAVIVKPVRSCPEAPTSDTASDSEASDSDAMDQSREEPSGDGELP

Measured: binding result

CTAGAGTAGCAGAGCTCTGGTAGCTAGAAAGCATG / CATGCTTTCTAGCTACCAGAGCTCTGCTACT [Scr (affinity)]
binds: [1] | [2]

CTAGATGCTGCATATAAGCACGTGCTTTTTGCATG / CATGCAAAAAGCACGTGCTTATATGCAGCAT [HIV-USF1KO (affinity)]
binds: [3] | [4] | [5]

CTAGATGCTGCATATAAGCAGCTGCTTTTTGCATG / CATGCAAAAAGCAGCTGCTTATATGCAGCAT [HIV-wt TASHET (affinity)]
not listed: [1] | [2]
binds: all other assays above
